Measurements from “University of Dundee, Small-Polar-MMV Screening Library” (2021), ChEMBL document CHEMBL3988442.

The filed quantity is “Percent Effect” (%). The record does not define 0% and 100%; most values in the screen are far below 50% and negative numbers occur (in some assays of this library far below -100). The entries come from a sample that favours strong results. Two or more numbers in one place are separate tests of the same structure; such repeats can differ widely. A dash means the value is not listed here; it may have been measured.

A: 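Growth of Mycobacterium tuberculosis over 3 days (7H9 medium with glucose and tyloxapol); the read-out is not stated. Concentration: 50 µM. Higher reads as more growth inhibition (inferred: compounds with an IC50 in retests scored well above the rest). About 69,000 compounds were tested under these conditions; 1.1% (about 760) showed 50% or more at least once.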
B: 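Phenotypic screen: M. tuberculosis growth, cholesterol and DPPC medium, 4 days; the read-out is not stated. Concentration: 50 µM. Higher reads as more growth inhibition (inferred: compounds with an IC50 in retests scored well above the rest). Size under these conditions: about 69,000 compounds, about 370 of them at 50% or above in at least one test.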

| Compound | A | B |
|---|---|---|
| `Cc1cnn(CCCOc2ccc3c(c2)OCO3)c1` | 37.46% & 27.76% | 35.24% |
| `CN(C)c1cc(C(=O)Nc2cccnc2N2CCSCC2)ccn1` | - | -11.75% |
| `COc1cccc(NC(C(N)=O)c2ccc(Br)cc2)c1` (stereo not shown) | 3.175% & 12.71% | -3.01% |
| `[H][C@]12CCN(C(=O)C3CCCO3)CC[C@@]1([H])S(=O)(=O)N(CC(C)C)C2` (stereo partly shown) | -10.39% & 82.22% | - |
| `Cc1cnn(CC2CN(c3nc4ccccc4o3)CCO2)c1` (stereo not shown) | 20.15% | - |
| `CCS(=O)(=O)N1CCC(c2nnc(CN3CCCCCC3)n2C)CC1` | - | 81.93% |
| `CC(C)C(NC(=O)c1ccc(N2CCOCC2)nc1)c1cccs1` (stereo not shown) | 17.73% | - |
| `Cc1nc(=O)c2ccccc2n1C1=CCN(CC(=O)NC(C)C)CC1` | 58.9% | - |
| `Cc1ccnc(N2Cc3cnn(Cc4ccc(F)cc4)c3C2)n1` | 36.19% | 13.16% & 18.82% |
| `O=C(NCC1(N2CCOCC2)CCSC1)Nc1ccc(F)cc1` (stereo not shown) | -25.38% | - |
| `CC(C)NC(=O)Cn1cc(-c2ccccc2)cn1` | - | 15.53% |
| `O=C(NCc1cc2ccccc2[nH]1)C1CCCN(C(=O)N2CCCC2)C1` (stereo not shown) | 24.29% | - |
| `Cc1cc(-n2cncn2)ccc1C(=O)N(C)CC(F)(F)C(F)(F)F` | -1.356% | - |
| `CCC1CN(CCNS(C)(=O)=O)c2ccccc2O1` (stereo not shown) | -7.477% & -4.051% | -8.509% |
| `O=C(CCc1ccccn1)N1CCSC2(CCCCC2)C1` | 54.06% | - |
| `O=C(O)C(F)(F)F.O=C(O)C(F)(F)F.c1ccc(N2CC[C@H](OCC3CC3)[C@@H]2Cc2cccnc2)nc1` | - | 1.354% |
| `CN(Cc1cccc(Cl)c1)S(=O)(=O)N1CCOCC1` | 5.727% & 12.42% | -5.901% |
| `CC(C)c1cc(C(=O)NCCCN(C)C)nc(N2CCCC2)n1` | 68.85% | - |
| `CN(C)c1ccc(CN(CCCn2ccnc2)Cc2c[nH]cn2)cc1.O=C(O)CC(O)(CC(=O)O)C(=O)O` | 51.7% | - |
| `Cc1nc(CC(=O)NCc2csc(N3CCCC3)n2)cs1` | 22.28% | - |
| `CCn1nc(C)c2c1cnn2CCNS(=O)(=O)Cc1ccccc1` | 57.91% | - |
| `Cc1ncc(CN(C)CC(O)c2ccc(Br)cc2)s1` (stereo not shown) | - | 10.4% |
| `O=C(CC1CCC1)N1CCCC(CO)(CC2CC2)C1` (stereo not shown) | -17.86% & 0.4176% | -0.8156% |
| `COCC(=O)NC(C)Cc1cccc(Br)c1` (stereo not shown) | 39.61% | - |
| `OCC1(CC2CCCCO2)CCN(c2cnc3ccccc3n2)CC1` (stereo not shown) | 64.81% & 60.08% | 66.38% |
| `Cc1cc(N2CCCC2Cn2nc(C)cc2C)n2ncnc2n1` (stereo not shown) | 1.97% | - |
| `COCCO[C@H]1COCCN(Cc2ccc(OC)cc2)C1` | 11.05% & -1.201% | - |
| `O=S(=O)(NCCNc1ccc(-n2cccn2)nn1)c1ccccc1` | 73.42% | 63.29% |
| `Cc1nn(CC(O)CN2CCc3ccccc3C2)c(=O)c2ccccc12` (stereo not shown) | 16.03% | 5.942% |
| `COC(=O)N1CCC(Nc2cccc(F)c2C(C)=O)CC1` | 18.68% | 4.569% & 5.06% |
| `CCOc1ccc(CN2CCc3nc4ccsc4c(=O)n3CC2)cc1.Cl` | 54.15% | 50.05% |
| `Cc1nc(CN2C(=O)CCC23CCN(Cc2ccccn2)CC3)cs1.O=C(O)C(F)(F)F.O=C(O)C(F)(F)F` | 53.58% | - |
| `CCc1onc(C)c1C(=O)N1CCC(c2cc3ncccc3cn2)CC1` | 14.39% | -8.498% |
| `CC(SCCC(=O)NC(N)=O)c1ccc(F)cc1F` (stereo not shown) | -5.16% & 10.03% | -1.681% |
| `c1ccc(-c2nccc(N3CCc4c(ncn4C4CC4)C3)n2)cc1` | 32.27% | 16.77% |
| `Cc1nc(C2CCCN2Cc2ccn(C)c(=O)c2)no1` (stereo not shown) | -15.32% | - |
| `Cc1cc(=O)[nH]c(-n2nc(C)c(CCC(=O)Nc3nc(C)cs3)c2C)n1` | 2.564% | - |
| `COc1ccc(CC(C)Nc2cccc(SC)c2)cc1` (stereo not shown) | 44.26% | 60.45% |
| `Cl.NCC1CCCCN1C(=O)Cc1cccc(Cl)c1` (stereo not shown) | - | 4.916% |
| `Fc1ccc(CN2CCCC3(CCN(Cc4ncc[nH]4)C3)C2)cc1F` (stereo not shown) | 51.87% | - |
| `NC(=O)CN(Cc1ccc(Br)cc1)C(=O)c1ccncc1` | -1.928% | - |
| `CC(C)C1=NOC(c2nc(Cc3ccccc3)no2)C1` (stereo not shown) | 55.29% | - |
| `CNc1ncc(C(=O)N2CCC(c3ccccc3C(=O)O)C2)cn1` (stereo not shown) | -0.3444% & -11.47% | - |
| `O=C(NCc1ccco1)c1cccc(C(=O)NCc2ccco2)n1` | 13.71% | -14.27% |
| `CCc1nc(NCc2ccccn2)c2c(n1)c(C)nn2C` | 0.9907% | 3.373% |
| `Cc1ccccc1-c1cc(C(=O)N2CCn3c(C)nnc3C2)[nH]n1` | 20.44% | - |
| `CC(C)Oc1ccc(CN2CCCC(N3CCCC3)C2)cc1CO` (stereo not shown) | 50.91% & 29.14% | - |
| `COC(=O)c1ncccc1N1CCC(C(O)c2ccccc2)CC1` (stereo not shown) | -31.43% | -24.55% |
| `CC(C)[C@@H]1CN(C(=O)NCc2ccco2)C[C@H]1NS(=O)(=O)N(C)C` | - | -22.59% |
| `Cc1ccccc1OCC(O)CN1CCC(Cn2cccn2)CC1` (stereo not shown) | 2.08% | - |
| `Cc1cccc(NC(=O)c2csc(NCC(C)C)n2)n1` | 1.944% | - |
| `CCOCC(=O)NC(C)Cc1ccccc1Br` (stereo not shown) | 62.76% | - |
| `Cc1nc(CN2CCOC3(CCCC3)C2)oc1C` | 17.29% | - |
| `Cc1cccnc1CCNC(=O)CC1C(=O)NCCN1CCC(C)C` (stereo not shown) | -1.199% & -42.11% | - |
| `Cc1cccc(-c2nnc(C(C)N3CCn4c(C)nnc4C3)o2)c1` (stereo not shown) | 69.39% | - |
| `O=C(NCCN1CCCS1(=O)=O)c1scnc1Cl` | 6.981% | - |
| `CNC(=O)C1CN(C(=O)c2cccs2)CCN(S(C)(=O)=O)C1` (stereo not shown) | - | 1.229% & 115.2% |
| `CN(CCc1cccs1)CCc1nccs1` | 2.576% | 15.22% |
| `Cc1ccc(CN(CCCn2ccnc2)Cc2cccs2)s1.O=C(O)CC(O)(CC(=O)O)C(=O)O` | 65.26% | 25.49% |
| `COc1cc(C)sc1C(=O)NCCC(=O)N(C)c1ccccc1` | -0.2156% & -2.982% | 12.23% |
| `Cn1cc(CCNC(=O)CCc2ccc3c(c2)OCO3)cn1` | -11.79% | - |
| `CCCN(C(=O)c1cnccn1)c1nc2c(s1)CCc1c-2cnn1C` | 29.04% | - |
| `CN(C)c1ncnc2c1CCN(c1ccccc1)CC2` | -9.271% & -23.93% | - |
| `COc1ccc(CNC(=O)c2ccc(Br)cn2)cc1` | 40.77% | 45.82% |